According to article PMC10508830 (Antiviral research, 2023):

Tests used:
[1] = tested on: A/chicken/Pennsylvania/22-012092-006/2022 (PA A37T); conditions: read-out: Mean EC50 ± SD; HINT; MDCK-SIAT1 cells; chicken/PA-6/22, PA A37T
[2] = tested on: A/chicken/Pennsylvania/22-012092-010/2022 (PA A37T); conditions: read-out: Mean EC50 ± SD; HINT; MDCK-SIAT1 cells; chicken/PA-10/22, PA A37T
[3] = tested on: A/Cooper's hawk/Minnesota/22-012931-001/2022 (PA I38M); conditions: read-out: Mean EC50 ± SD; HINT; MDCK-SIAT1 cells; hawk/MN-1/22, PA I38M
[4] = tested on: A/bald eagle/Wyoming/22-013015-001/2022 (PA V44A); conditions: read-out: Mean EC50 ± SD; HINT; MDCK-SIAT1 cells; eagle/WY/22, PA V44A
[5] = tested on: A/fox/Michigan/22-014536-004/2022 (PA M61I, A85T); conditions: read-out: Mean EC50 ± SD, HINT, MDCK-SIAT1 cells, fox/MI/22, PA M61I
[6] = tested on: A/black vulture/Florida/22-012333-001/2022 (PA R185G); conditions: read-out: Mean EC50 ± SD; HINT; MDCK-SIAT1 cells; vulture/FL-33/22, PA R185G
[7] = tested on: A/chicken/Pennsylvania/22-012092-010/2022 (PA A37T); conditions: read-out: Mean EC50 ± SD; IRINA; MDCK-SIAT1 cells; chicken/PA-10/22, PA A37T
[8] = tested on: A/Cooper's hawk/Minnesota/22-012931-001/2022 (PA I38M); conditions: read-out: Mean EC50 ± SD; IRINA; MDCK-SIAT1 cells; hawk/MN-1/22, PA I38M
[9] = tested on: A/bald eagle/Wyoming/22-013015-001/2022 (PA V44A); conditions: read-out: Mean EC50 ± SD; IRINA; MDCK-SIAT1 cells; eagle/WY/22, PA V44A
[10] = tested on: A/harbor seal/Maine/22-020983-002/2022 (PA A70V); conditions: read-out: Mean EC50 ± SD; IRINA; MDCK-SIAT1 cells; seal/ME-2/22, PA A70V

O=C1c2c(O)c(=O)ccn2N([C@@H]2c3ccccc3SCc3c2ccc(F)c3F)[C@@H]2COCCN12 [Baloxavir, baloxavir acid]
EC50 [1]: 3.21 nM | EC50 [2]: 3.15 nM | EC50 [3]: 3.34 nM | EC50 [4]: 0.86 nM | EC50 [5]: 0.8 nM | EC50 [6]: 0.52 nM | EC50 [7]: 1.84 nM | EC50 [8]: 2.94 nM | EC50 [9]: 0.37 nM | EC50 [10]: 0.49 nM

Where two headings read alike, the source gives them in different places.
